PubChem BioAssay AID624099, ICCB-Longwood | 2012
Shown is one part, drawn at random, of about 21,000 reagents. 497 of all reagents (2.4%) were called active. 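Higher z means weaker E2 silencing; only reporter increases were scored, and knock-downs that hurt cell survival may mask genuine repressor factors.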

Assay: 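Human genes that papillomavirus E2 requires to repress the HPV18 LCR promoter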 (primary screen)
Cells: human C33A cervical carcinoma cells (HPV-negative) stably expressing BPV1 E2 and an HPV18 LCR luciferase reporter
Knock-down reagent: siRNA pool against human genes, 40 nM
Time to read-out: 72 h
Measured: 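HPV18 LCR reporter light per well, converted to plate-wise z-scores that exclude control wells, and averaged over triplicate plates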
Direction: mean z-score and z-score: higher = stronger reporter signal, weaker E2 silencing
Hit rule: 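Hit if mean z-score reaches 2 and two or more of three replicate z-scores also reach 2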

For CAMK1, the entry reads mean z-score -0.06; z-score, replicate A = 0.5; z-score, replicate B = -0.21; z-score, replicate C = -0.46; inactive.
PSMB3 scored mean z-score -1.48; z-score, replicate A = -1.55; z-score, replicate B = -1.42; z-score, replicate C = -1.48; inactive.
PSTK scored mean z-score -0.74; z-score, replicate A = -0.69; z-score, replicate B = -0.55; z-score, replicate C = -0.98; inactive.
Knock-down of SMPDL3B gave: mean z-score 0.07; z-score, replicate A = 0.11; z-score, replicate B = 0.08; z-score, replicate C = 0; inactive.
Knock-down of PEX7 resulted in: mean z-score 0.16; z-score, replicate A = 0.28; z-score, replicate B = -0.08; z-score, replicate C = 0.29; inactive.
After knock-down of SERPINA9, the screen gave mean z-score 2.03; z-score, replicate A = 2.17; z-score, replicate B = 1.91; z-score, replicate C = 1.99; inactive.
With knock-down of H2AZ2P1 the results were mean z-score -1.12; z-score, replicate A = -1.02; z-score, replicate B = -1.24; z-score, replicate C = -1.09; inactive.
With knock-down of DUBR, the screen gave mean z-score -1.19; z-score, replicate A = -1.27; z-score, replicate B = -0.86; z-score, replicate C = -1.45; inactive.
Silencing of ASXL3 came out at: mean z-score -0.61; z-score, replicate A = -0.51; z-score, replicate B = -0.64; z-score, replicate C = -0.68; inactive.

2 of these entries in another layout:
gene symbol | mean z-score | z-score, replicate A | z-score, replicate B | z-score, replicate C | outcome
PSMB3 | -1.48 | -1.55 | -1.42 | -1.48 | inactive
PSTK | -0.74 | -0.69 | -0.55 | -0.98 | inactive

Further reagents follow.
With knock-down of NYNRIN the results were mean z-score -0.32; z-score, replicate A = -0.82; z-score, replicate B = -0.29; z-score, replicate C = 0.14; inactive.
With knock-down of FHAD1, the record shows mean z-score -1.2; z-score, replicate A = -1.31; z-score, replicate B = -1.15; z-score, replicate C = -1.13; inactive.
After knock-down of EIF3D the results were mean z-score -2.87; z-score, replicate A = -2.71; z-score, replicate B = -2.93; z-score, replicate C = -2.98; inactive.
Against PTEN, the entry reads mean z-score -0.59; z-score, replicate A = -0.43; z-score, replicate B = -0.77; z-score, replicate C = -0.57; inactive.
Against B3GALT6 the deposit lists mean z-score -1.08; z-score, replicate A = -1.09; z-score, replicate B = -1.15; z-score, replicate C = -1.01; inactive.
